Pooled drug test results. Numbers come from NIAID ChemDB, via PubChem.

Common to all: tests in culture; agent: Aspergillus fumigatus; read-out: MIC

Rows are shuffled and stem from different studies. An empty or dashed field is not shown.

structure | strain | method | result
CS(=O)(=O)C(F)(F)C(O)(Cn1cncn1)c1ccc(F)cc1F | IFM 40808 | - | 8 µg/mL
O=[N+]([O-])c1ccc(C(F)(F)C(O)(Cn2cncn2)c2ccc(F)cc2F)o1 | IFM 40808 | - | >8 µg/mL
COc1cccc2c1C(=O)c1c(O)c3c(c(O)c1C2=O)C[C@@](O)(C(C)=O)C[C@@H]3O[C@H]1C[C@H](N)[C@H](O)[C@H](C)O1 | NCPF 2010 | - | >100 µM
CC(=O)Nc1ccc(NC(=O)CSc2nnc(-c3ccc4ncccc4c3)o2)cc1 | - | agar | 100 µg/mL
CCC1C=C(c2ccc(Br)cc2)C(=O)O1 | 231 | - | 62.5 µM
O=C(CSc1nnc(-c2ccc3ncccc3c2)o1)Nc1ccc(Cl)cc1 | - | agar | 100 µg/mL
CCC(C)CCCCCCCCC1CC(=O)NCC(=O)N[C@@H](CCCN)C(=O)N[C@@H](C(C)C)C(=O)N1 | IFM4942 | - | >80 µg/mL
OC(Cn1cncn1)(c1ccc(F)cc1)C(F)(F)c1cccs1 | IFM 40808 | - | 1 µg/mL
C=C1/C=C(\C)[C@H](CC)OC(=O)[C@H](C)C(=O)C(O)(CO)C/C(C)=C/[C@@H](C)C1 | MF5668 | - | >200 µg/mL
N#Cc1ccc(Nc2nc(Oc3cccc4cccnc34)nc(N3CCN(c4ccccn4)CC3)n2)cc1C(F)(F)F | MTCC 343 | agar | 12.5 µg/mL
CC1=CC[C@@H]2[C@H](C1)C2(C)C | F17 | - | 0.16 µg/mL
C=C1CC(C/C(C)=C/COc2ccc3ccc(=O)oc3c2)OC1=O | MTCC 6594 | - | 625 µg/mL
C[C@@H](n1ccn(-c2ccc(OC(F)(F)C(F)F)cc2)c1=O)C(O)(Cn1cncn1)c1ccccc1F | 437 | - | 2 µg/mL
CC(=O)[C@]1(O)Cc2c(O)c3c(c(O)c2[C@@H](O[C@H]2C[C@H](N)[C@H](O)[C@H](C)O2)C1)C(=O)c1ccccc1C3=O | NCPF 2010 | - | >100 µM
CCC1C=C(c2ccc(Cl)cc2)C(=O)O1 | 231 | - | 62.5 µM
CCCS(=O)(=O)C(F)(F)[C@](O)(Cn1cncn1)c1ccc(F)cc1F | IFM 40808 | - | 4 µg/mL
Cc1ccc(C2=CC(C)OC2=O)cc1 | 231 | - | >125 µM
CN1CCN(c2nc(Nc3ccc(C#N)c(C(F)(F)F)c3)nc(Oc3cccc4cccnc34)n2)CC1 | MTCC 343 | agar | 50 µg/mL
CC1C=C(c2ccc(Cl)cc2Cl)C(=O)O1 | 231 | - | >125 µM
Cc1ccc(NC(=O)CSc2nnc(-c3ccc4ncccc4c3)o2)cc1 | - | agar | 100 µg/mL
C[C@@H](n1ccn(-c2ccc(OC(F)(F)C(F)F)cc2)c1=O)C(O)(Cn1cncn1)c1ccc(F)cc1F | 437 | - | 2 µg/mL
CCCCCC1C=C(c2ccc(Cl)c(Cl)c2)C(=O)O1 | 231 | - | >125 µM
CCOc1ccc2nc(NC(=O)CSc3nnc(-c4ccc5ncccc5c4)o3)sc2c1 | - | agar | 100 µg/mL
OC(Cc1ccccn1)(Cn1cncn1)c1ccc(F)cc1F | IFM 40808 | - | >8 µg/mL
C[C@@H](N1CCN(c2ccc(OC(F)(F)C(F)F)cc2)C1=O)C(O)(Cn1cncn1)c1ccccc1F | IFO6344 | - | 0.5 µg/mL
CCCCCC1C=C(c2cccc(Cl)c2)C(=O)O1 | 231 | - | 62.5 µM
CC(C(O)(Cn1cncn1)c1ccc(F)cc1F)S(C)(=O)=O | IFM 40808 | - | >64 µg/mL
CC(=O)N1CCN(c2nc(Nc3ccc(C#N)c(C(F)(F)F)c3)nc(Oc3cccc4cccnc34)n2)CC1 | MTCC 343 | agar | 25 µg/mL
O=C(CSc1nnc(-c2ccc3ncccc3c2)o1)Nc1ccc(I)cc1 | - | agar | 100 µg/mL
CCCCCC1C=C(c2ccc(Br)cc2)C(=O)O1 | 231 | - | 62.5 µM
Cc1noc(C)c1C(F)(F)C(O)(Cn1cncn1)c1ccc(F)cc1F | IFM 40808 | - | >8 µg/mL
CC(C)CCCCCCCCC1CC(=O)NCC(=O)N[C@@H](CCCN)C(=O)N[C@@H](C(C)C)C(=O)N1 | TIMM0063 | - | >80 µg/mL
O=C(CSc1nnc(-c2ccc3ncccc3c2)o1)Nc1ccc([N+](=O)[O-])cc1 | - | agar | 100 µg/mL
CC1C=C(c2ccc(Br)c(Br)c2)C(=O)O1 | 231 | - | >125 µM
N#Cc1ccc(Nc2nc(Oc3cccc4cccnc34)nc(N3CCN(c4ccccc4)CC3)n2)cc1C(F)(F)F | MTCC 343 | agar | 100 µg/mL
C[C@H]1[C@H](O)[C@@H](C)/C=C/C=C/C=C/C=C/C=C/C=C/C=C/[C@H](O[C@@H]2O[C@H](C)[C@@H](O)[C@H](N)[C@@H]2O)C[C@@H]2O[C@](O)(C[C@@H](O)C[C@@H](O)CC[C@H](O)[C@@H](O)C[C@@H](O)CC(=O)O[C@H]1C)C[C@H](O)[C@H]2C(=O)O | - | broth dilution / resazurin | 3.9 µg/mL
CC(=O)N1CCN(c2ccc(OC[C@H]3CO[C@](Cn4ccnc4)(c4ccc(Cl)cc4Cl)O3)cc2)CC1 | 2 strains | - | 5 µg/mL
C[C@@H](N1CCN(c2ccc(OCC(F)(F)C(F)F)cc2)C1=O)C(O)(Cn1cncn1)c1ccccc1F | 437 | - | 1 µg/mL
CCC(C)CC(C)CCCCCCCCC(=O)N[C@H]1C[C@@H](O)[C@H](NCCN)NC(=O)[C@@H]2[C@@H](O)CCN2C(=O)[C@H]([C@H](O)CCN)NC(=O)[C@H]([C@H](O)[C@@H](O)c2ccc(O)cc2)NC(=O)[C@@H]2C[C@@H](O)CN2C(=O)[C@H]([C@@H](C)O)NC1=O | MF5668 | - | <0.03 µg/mL

A second listing of 3 rows from above:

structure,strain,method,result
Cc1noc(C)c1C(F)(F)C(O)(Cn1cncn1)c1ccc(F)cc1F,IFM 40808,-,>8 µg/mL
Cc1ccc(C2=CC(C)OC2=O)cc1,231,-,>125 µM
CN1CCN(c2nc(Nc3ccc(C#N)c(C(F)(F)F)c3)nc(Oc3cccc4cccnc34)n2)CC1,MTCC 343,agar,50 µg/mL